Compound potency records, mixed from different reports. Data source: NIAID ChemDB in PubChem.

Shared fields: whole-cell or culture tests; agent: Candida albicans; measure: MIC

Conditions beyond the fields shown may differ between rows.

{"SMILES": "COc1ccc(C2c3c(nc(=S)[nH]c3N)Oc3c2c(C)nn3-c2ccccc2)cc1", "strain": "MTCC 227", "value": "250 µg/mL"}
{"SMILES": "COC(=O)c1cc2ccccc2cc1-c1nn(C(C)=O)c(=S)n1-c1ccc(F)cc1", "strain": "ATCC 2091", "value": "500 µg/mL"}
{"SMILES": "Cc1c(OCc2ccccc2)c(=O)ccn1CCC1=NCCS1", "value": "75 µg/mL"}
{"SMILES": "Cc1nn(-c2ccccc2)c2c1C(c1ccc(O)cc1)C(C#N)=C(N)O2", "strain": "MTCC 227", "value": "150 µg/mL"}
{"SMILES": "CC1=CCC[C@H]2[C@](C)(CC3=C(O)C(N[C@H](C(=O)O)C(C)C)=CC(=O)C3=O)[C@@H](C)CC[C@]12C", "value": "33 µg/mL"}
{"SMILES": "O=C1N=c2ccccc2=C1c1sc(Nc2nnc(-c3ccccc3)o2)nc1O", "strain": "ATCC 10231", "value": "16 µg/mL"}
{"SMILES": "N=C(N)c1ccc2oc(/C=C/c3cc4ccc(C(=N)N)cc4[nH]3)cc2c1", "value": ">60 µg/mL"}
{"SMILES": "CCCCCOc1ccc(-c2ccc(-c3ccc(C(=O)N[C@H]4CCCNC(=O)C5C[C@H](NCCN)CN5C(=O)C(C(C)O)NC(=O)C(CCc5ccc(O)cc5)NC(=O)C5C[C@@H](O)CN5C(=O)C(C(C)O)NC4=O)cc3)cc2)cc1", "strain": "ATCC 10231", "value": "0.39 µg/mL"}
{"SMILES": "N=C(N)c1ccc(-c2[nH]c3cc(C(=N)N)ccc3c2N)cc1", "value": ">60 µg/mL"}
{"SMILES": "Cc1c(O)cccc1C(=O)N[C@@H](CSc1ccccc1)[C@H](O)CN1C[C@H]2CCCC[C@H]2C[C@H]1C(=O)NC(C)(C)C", "strain": "I59C", "value": "64 µg/mL"}
{"SMILES": "COC(=O)c1cc2ccccc2cc1-c1nn(C(C)=O)c(=S)n1C1CCCCC1", "strain": "ATCC 2091", "value": "250 µg/mL"}
{"SMILES": "Cc1ccc(S(=O)(=O)N/N=C2C=C3/C(=N/NS(=O)(=O)c4ccc(C)cc4)CC4C(CC[C@]5(C)[C@@H]([C@H](C)CCCC(C)C)CC[C@@H]45)[C@@]3(C)CC/2)cc1", "strain": "CIP 1663-86", "value": "25 µg/mL"}
{"SMILES": "CC(N1CCN(c2ccc(-n3cnnn3)cc2)C1=O)[C@@](O)(Cn1cncn1)c1ccc(F)cc1F", "strain": "IFO 0583", "value": ">16 µg/mL"}
{"SMILES": "O=C1N=c2ccc(OC(F)(F)F)cc2=C1c1sc(Nc2nnc(-c3ccccc3)o2)nc1O", "strain": "ATCC 10231", "value": "16 µg/mL"}
{"SMILES": "c1ccc2oc(Cc3cc4ccccc4o3)cc2c1", "value": ">60 µg/mL"}
{"SMILES": "CCCCCOc1ccc(-c2ccc(-c3ccc(C(=O)N[C@H]4CCCNC(=O)[C@@H]5C[C@H](N)CN5C(=O)[C@H](CC)NC(=O)[C@H](CCc5ccc(O)cc5)NC(=O)[C@@H]5C[C@@H](O)CN5C(=O)[C@H]([C@@H](C)O)NC4=O)cc3)cc2)cc1", "strain": "ATCC 10231", "value": "0.1 µg/mL"}
{"SMILES": "N=C(N)c1ccc2nc(-c3ccc(-c4nc5ccc(C(=N)N)cc5[nH]4)[nH]3)[nH]c2c1", "strain": "Isolate CA1247", "value": "0.78 µg/mL"}
{"SMILES": "CC(O)C1NC(=O)C(CCc2ccc(O)cc2)NC(=O)C2C[C@@H](O)CN2C(=O)C(C(C)O)NC(=O)[C@@H](NC(=O)c2ccc(N(C)C)cc2)CCCNC(=O)C2C[C@H](N)CN2C1=O", "strain": "ATCC 10231", "value": ">100 µg/mL"}
{"SMILES": "O=C(CCCCCCCCCC(=O)C1=C(O)C(Cc2ccc(O)cc2)NC1=O)CCCCCCCCCC(O)CO[C@@H]1OC[C@H](CO)[C@@H](O)[C@H](O)[C@H]1O", "strain": "MY1055", "value": "8 µg/mL"}
{"SMILES": "C[C@H]1[C@H](O)[C@@H](C)/C=C/C=C/C=C/C=C/C=C/C=C/C=C/[C@H](O[C@@H]2O[C@H](C)[C@@H](O)[C@H](N)[C@@H]2O)C[C@@H]2O[C@](O)(C[C@@H](O)C[C@@H](O)CC[C@H](O)[C@@H](O)C[C@@H](O)CC(=O)O[C@H]1C)C[C@H](O)[C@H]2C(=O)O", "strain": "A28200", "value": "0.25 µg/mL"}
{"SMILES": "N=C(N)c1cccc(-c2cc3cc(C(=N)N)ccc3s2)c1", "value": ">60 µg/mL"}
{"SMILES": "CCCCCOc1ccc(-c2ccc(-c3ccc(C(=O)N[C@H]4CCCNC(=O)[C@@H]5C[C@H](N)CN5C(=O)CNC(=O)C(CCc5ccc(O)cc5)NC(=O)[C@@H]5C[C@@H](O)CN5C(=O)[C@H]([C@@H](C)O)NC4=O)cc3)cc2)cc1", "strain": "ATCC 62376", "value": "0.2 µg/mL"}
{"SMILES": "CC(C)CCCCCCCCCC1CC(=O)NCC(=O)N[C@@H](CCCCN)C(=O)N[C@@H](C(C)C)C(=O)N1", "strain": "IFM 40009", "value": "1.25 µg/mL"}
{"SMILES": "O=c1ccn(CCC2=NCCS2)cc1O", "value": "50 µg/mL"}
{"SMILES": "Cc1nn(-c2ccccc2)c2c1C(c1ccc(Cl)cc1)C(C#N)=C(N)O2", "strain": "MTCC 227", "value": "1000 µg/mL"}
{"SMILES": "CCn1c(-c2cc3ccccc3cc2O)n[nH]c1=S", "strain": "ATCC 2091", "value": "250 µg/mL"}
{"SMILES": "N=C(N)c1ccc(N/N=C/c2cc3cc(C(=N)N)ccc3o2)cc1", "value": "30 µg/mL"}
{"SMILES": "Cc1ccc(S(=O)(=O)N/N=C2\\CC[C@@]3(C)C(C2)C[C@@H](O)C2C3CC[C@]3(C)[C@@H]([C@H](C)CCCC(C)C)CC[C@@H]23)cc1", "strain": "CIP 1180-79", "value": ">50 µg/mL"}
{"SMILES": "CCCCCOc1ccc(-c2ccc(-c3ccc(C(=O)N[C@H]4CCCNC(=O)[C@@H]5C[C@H](N)CN5C(=O)[C@H](CCCCN)NC(=O)[C@H](CCc5ccc(O)cc5)NC(=O)[C@@H]5C[C@@H](O)CN5C(=O)[C@H]([C@@H](C)O)NC4=O)cc3)cc2)cc1", "strain": "ATCC 10231", "value": "0.78 µg/mL"}
{"SMILES": "Cc1cc(COc2ccc(Oc3ccc(Cl)cc3)cc2)n(O)c(=O)c1", "strain": "TIMM0144", "value": "8 µg/mL"}
{"SMILES": "CCCCCOc1ccc(-c2ccc(-c3ccc(C(=O)N[C@H]4CCCNC(=O)C5C[C@H](N=[N+]=[N-])N5C(=O)C(C(C)O)NC(=O)C(CCc5ccc(O)cc5)NC(=O)C5C[C@@H](O)CN5C(=O)C(C(C)O)NC4=O)cc3)cc2)cc1", "strain": "ATCC CCH442", "value": "0.39 µg/mL"}
{"SMILES": "Cc1ccc(C2c3c(nc(=S)[nH]c3N)Oc3c2c(C)nn3-c2ccccc2)cc1", "strain": "MTCC 227", "value": "1000 µg/mL"}
{"SMILES": "CC(C)CCC[C@@H](C)[C@H]1CC[C@H]2C3/C(=N/N)CC4=C/C(=N/N)CC[C@]4(C)C3CC[C@]12C", "strain": "CIP 1180-79", "value": ">50 µg/mL"}
{"SMILES": "O=C1N=c2ccc(Br)cc2=C1c1sc(Nc2nnc(-c3ccccc3)o2)nc1O", "strain": "ATCC 10231", "value": "16 µg/mL"}
{"SMILES": "CCCCCOc1ccc(-c2ccc(-c3ccc(C(=O)N[C@H]4CCCNC(=O)[C@@H]5C[C@H](N)CN5C(=O)[C@H](CCCN)NC(=O)[C@H](CCc5ccc(O)cc5)NC(=O)[C@@H]5C[C@@H](O)CN5C(=O)[C@H]([C@@H](C)O)NC4=O)cc3)cc2)cc1", "strain": "ATCC 38247", "value": "0.39 µg/mL"}
{"SMILES": "CCCCCOc1ccc(-c2ccc(-c3ccc(C(=O)N[C@H]4CCCNC(=O)C5C[C@H](NC6CCNCC6)CN5C(=O)C(C(C)O)NC(=O)C(CCc5ccc(O)cc5)NC(=O)C5C[C@@H](O)CN5C(=O)C(C(C)O)NC4=O)cc3)cc2)cc1", "strain": "ATCC CCH442", "value": "0.39 µg/mL"}
{"SMILES": "Oc1cc2ccccc2cc1-c1nnc(Nc2ccc(F)cc2)s1", "strain": "ATCC 2091", "value": "125 µg/mL"}
{"SMILES": "Cc1ccc(S(=O)(=O)N/N=C2\\CC[C@@]3(C)C(=C/C(=N/NS(=O)(=O)c4ccc(C)cc4)C4C3CC[C@]3(C)[C@@H]([C@H](C)CCCC(C)C)CC[C@@H]43)C2)cc1", "strain": "CIP 1180-79", "value": ">50 µg/mL"}
{"SMILES": "Cc1cc(=O)c(OCc2ccccc2)cn1CC1=NCCS1", "value": "100 µg/mL"}
{"SMILES": "CC(C)(CS(=O)(=O)[O-])N(Cl)Cl", "strain": "10231", "value": "32 µg/mL"}
{"SMILES": "CCC(C)CCCCCCCCC1CC(=O)NCC(=O)N[C@@H](CCCN)C(=O)N[C@@H](C(C)C)C(=O)N1", "strain": "ATCC 10231", "value": "2.5 µg/mL"}
{"SMILES": "Cc1c(O)c(=O)ccn1CCC1=NCCS1", "value": "50 µg/mL"}
{"SMILES": "Cc1ccc(S(=O)(=O)N/N=C2\\CC3C(CC[C@]4(C)[C@@H]([C@H](C)CCCC(C)C)CC[C@@H]34)[C@@]3(C)CC[C@H](O)CC23)cc1", "strain": "CIP 1663-86", "value": "1.5 µg/mL"}
{"SMILES": "COc1ccc(-c2nnc(Nc3nc(O)c(C4=c5cc(F)ccc5=NC4=O)s3)o2)cc1", "strain": "ATCC 10231", "value": "16 µg/mL"}
{"SMILES": "COc1nnc2c(cnc3ccccc32)n1", "strain": "VM-71", "value": "40 µg/mL"}
{"SMILES": "C[C@@H](N1CCN(c2ccc(-n3cnnn3)cc2)C1=O)[C@@](O)(Cn1cncn1)c1ccc(F)cc1F", "strain": "TA", "value": "2 µg/mL"}
{"SMILES": "O=C1N=c2ccc(F)cc2=C1c1sc(Nc2nnc(-c3ccccc3)o2)nc1O", "strain": "ATCC 10231", "value": "16 µg/mL"}
{"SMILES": "Cc1nn(-c2ccccc2)c2c1C(c1cccc(Br)c1)C(C#N)=C(N)O2", "strain": "MTCC 227", "value": "100 µg/mL"}
{"SMILES": "OCCNc1nnc2c(cnc3ccccc32)n1", "strain": "VM-71", "value": "30 µg/mL"}
{"SMILES": "CCNc1nnc(-c2cc3ccccc3cc2O)s1", "strain": "ATCC 2091", "value": "125 µg/mL"}
{"SMILES": "Cc1ccc(S(=O)(=O)N/N=C2/C=C3C[C@H](O)C4C(CC[C@]5(C)[C@@H]([C@H](C)CCCC(C)C)CC[C@@H]45)[C@@]3(C)CC2)cc1", "strain": "CIP 1180-79", "value": ">50 µg/mL"}
{"SMILES": "COc1ccc(C2C(C#N)=C(N)Oc3c2c(C)nn3-c2ccccc2)cc1", "strain": "MTCC 227", "value": "200 µg/mL"}
{"SMILES": "CCn1c(-c2cc3ccccc3cc2C(=O)OC)n[nH]c1=S", "strain": "ATCC 2091", "value": "250 µg/mL"}
{"SMILES": "N=C(N)c1ccc(CCc2cc3cc(C(=N)N)ccc3o2)cc1", "value": "30 µg/mL"}
{"SMILES": "CCCCCOc1ccc(-c2ccc(-c3ccc(C(=O)N[C@H]4CCCNC(=O)C5C[C@H](NC(=O)NCCN(C)C)CN5C(=O)C(C(C)O)NC(=O)C(CCc5ccc(O)cc5)NC(=O)C5C[C@@H](O)CN5C(=O)C(C(C)O)NC4=O)cc3)cc2)cc1", "strain": "ATCC 10231", "value": "0.78 µg/mL"}
{"SMILES": "Cc1c(/C=C/c2oc3ccc(C(=N)N)cc3c2C)oc2ccc(C(=N)N)cc12", "value": ">60 µg/mL"}
{"SMILES": "CCCCCOc1ccc(-c2ccc(-c3ccc(C(=O)N[C@H]4CCCNC(=O)C5CCN5C(=O)C(C(C)O)NC(=O)C(CCc5ccc(O)cc5)NC(=O)C5C[C@@H](O)CN5C(=O)C(C(C)O)NC4=O)cc3)cc2)cc1", "strain": "ATCC 62376", "value": "3.12 µg/mL"}
{"SMILES": "CCCCCOc1ccc(-c2ccc(-c3ccc(C(=O)N[C@H]4CCCNC(=O)[C@@H]5C[C@H](N)CN5C(=O)[C@H](CO)NC(=O)[C@H](CCc5ccc(O)cc5)NC(=O)[C@@H]5C[C@@H](O)CN5C(=O)[C@H]([C@@H](C)O)NC4=O)cc3)cc2)cc1", "strain": "ATCC 38247", "value": "0.2 µg/mL"}